# According to paper PMC13438699 (Nature Communications, 2026):
# T1: H1 stem (#4900), HA stem construct derived from the A/Brisbane/59/2007 (H1N1) HA (Designed HA stem #4900 from influenza A …, stabilised)
# T1 chain 1: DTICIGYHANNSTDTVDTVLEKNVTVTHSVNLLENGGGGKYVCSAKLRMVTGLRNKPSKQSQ
# T1 chain 2: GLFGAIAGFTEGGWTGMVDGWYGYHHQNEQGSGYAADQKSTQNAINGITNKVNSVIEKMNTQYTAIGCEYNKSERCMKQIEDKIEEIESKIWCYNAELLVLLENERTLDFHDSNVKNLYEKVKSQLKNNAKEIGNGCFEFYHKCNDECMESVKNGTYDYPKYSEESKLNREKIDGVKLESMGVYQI
# T2: H1 stem (#4900), HA stem construct derived from the A/Brisbane/59/2007 (H1N1) HA (Designed HA stem #4900 from influenza A …, stabilised)
# T2 chain 1: T1 chain 1
# T2 chain 2: T1 chain 2
# B1: HB31 VH R55G germline revertant Fab (Fab, V domains shown)
# VH: EVQLLESGGGLVQPGGSLRLSCTVSGFTSSNYDMSWVRQAPGKGLEWVSGISGTGGDTYYADSVKGRFTISRDNSKNTLSLQMNSLRADDTAVYFCARDRPVLRYFDWQPYGLDVWGKGTTVTVSS
# VL: QSALTQPPSASGSPGQSVTISCTGTSSDVGGYNYVSWYQQYPSKAPKLMIYEVSKRPSGVPDRFSGSKSGNTASLTVSGLQAEDEADYYCNSYAGSNLYVFGTGTKVTVL
# B2: HB31 VH R55G germline revertant IgG (antibody, V domains shown)
# VH: B1 VH
# VL: B1 VL
# notes: copies: 2 + 2
# B3: HB31 VH R55G revertant, IgG format (antibody, V domains shown)
# VH: B1 VH
# VL: B1 VL
# Columns and labels:
# [1] = molecular target: T1, H1 stem (#4900), HA stem construct …; assay: BLI; conditions: both partners purified
# [2] = molecular target: T2, H1 stem (#4900), HA stem construct …; assay: BLI; conditions: both partners purified
Binder,Kd [1],fold weaker KD than HB31 wild type IgG [2]
B1,5.8 nM,–
B2,10.7 nM,–
B3,–,4 fold
